Test: Synchrotron radiation circular dichroism (SRCD), helical content estimated with BestSel
Type: physicochemical
Details: 25 °C; for % helix in solution: peptide 100 μM in buffer A (20 mM HEPES, 150 mM NaCl, pH 7.4), BestSel deconvolution; for % helix in TFE 20% / % helix in DOPC / % helix in DOPC/DOPG 8 :2 / % helix in POPC: peptide 100 μM, BestSel; for % helix in TFE 20%: 20% trifluoroethanol; for % helix in DOPC: DOPC SUVs 2 mM lipids; for % helix in DOPC/DOPG 8 :2: DOPC/DOPG 8:2 SUVs 2 mM lipids; for % helix in POPC: POPC SUVs 2 mM lipids

CC[C@H](C)[C@H](NC(=O)[C@H](C)NC(=O)[C@H](Cc1c[nH]cn1)NC(=O)[C@@H](NC(=O)[C@H](CC(C)C)NC(=O)[C@H](CCCNC(=N)N)NC(=O)[C@H](CCC(N)=O)NC(=O)[C@H](C)NC(=O)[C@H](C)NC(=O)[C@H](C)NC(=O)[C@@H](NC(=O)[C@H](C)NC(=O)[C@H](CCC(N)=O)NC(=O)[C@H](C)NC(=O)CNC(=O)[C@H](CCC(N)=O)NC(=O)[C@H](CC(C)C)NC(=O)[C@H](C)NC(=O)[C@H](CCC(N)=O)NC(=O)[C@H](CCC(N)=O)NC(=O)CNC(=O)[C@H](Cc1c[nH]c2ccccc12)NC(=O)[C@H](Cc1c[nH]cn1)NC(=O)[C@H](C)NC(=O)[C@H](CO)NC(=O)[C@H](C)NC(C)=O)C(C)C)C(C)C)C(=O)N[C@@H](C)C(=O)N[C@@H](CC(C)C)C(=O)N[C@@H](CCSC)C(=O)N[C@H](C(=O)N[C@@H](CCC(N)=O)C(N)=O)[C@@H](C)O [P454 R1Q]
% helix in solution: 13 ± 1%
% helix in TFE 20%: 41 ± 3%
% helix in DOPC: 27 ± 1%
% helix in DOPC/DOPG 8 :2: 38 ± 2%
% helix in POPC: 27 ± 1%

CC[C@H](C)[C@H](NC(=O)[C@H](C)NC(=O)[C@H](Cc1c[nH]cn1)NC(=O)[C@@H](NC(=O)[C@H](CC(C)C)NC(=O)[C@H](CCC(N)=O)NC(=O)[C@H](CCC(N)=O)NC(=O)[C@H](C)NC(=O)[C@H](C)NC(=O)[C@H](C)NC(=O)[C@@H](NC(=O)[C@H](C)NC(=O)[C@H](CCC(N)=O)NC(=O)[C@H](C)NC(=O)CNC(=O)[C@H](CCC(N)=O)NC(=O)[C@H](CC(C)C)NC(=O)[C@H](C)NC(=O)[C@H](CCCNC(=N)N)NC(=O)[C@H](CCC(N)=O)NC(=O)CNC(=O)[C@H](Cc1c[nH]c2ccccc12)NC(=O)[C@H](Cc1c[nH]cn1)NC(=O)[C@H](C)NC(=O)[C@H](CO)NC(=O)[C@H](C)NC(C)=O)C(C)C)C(C)C)C(=O)N[C@@H](C)C(=O)N[C@@H](CC(C)C)C(=O)N[C@@H](CCSC)C(=O)N[C@H](C(=O)N[C@@H](CCC(N)=O)C(N)=O)[C@@H](C)O [P454 R2Q]
% helix in solution: 8 ± 3%
% helix in TFE 20%: 45 ± 3%
% helix in DOPC: 16 ± 1%
% helix in DOPC/DOPG 8 :2: 27 ± 2%
% helix in POPC: 18 ± 1%

CC[C@H](C)[C@H](NC(=O)[C@H](C)NC(=O)[C@H](Cc1c[nH]cn1)NC(=O)[C@@H](NC(=O)[C@H](CC(C)C)NC(=O)[C@H](C)NC(=O)[C@H](CCC(N)=O)NC(=O)[C@H](C)NC(=O)[C@H](C)NC(=O)[C@H](C)NC(=O)[C@@H](NC(=O)[C@H](C)NC(=O)[C@H](CCC(N)=O)NC(=O)[C@H](C)NC(=O)CNC(=O)[C@H](CCC(N)=O)NC(=O)[C@H](CC(C)C)NC(=O)[C@H](C)NC(=O)[C@H](C)NC(=O)[C@H](CCC(N)=O)NC(=O)CNC(=O)[C@H](Cc1c[nH]c2ccccc12)NC(=O)[C@H](Cc1c[nH]cn1)NC(=O)[C@H](C)NC(=O)[C@H](CO)NC(=O)[C@H](C)NC(C)=O)C(C)C)C(C)C)C(=O)N[C@@H](C)C(=O)N[C@@H](CC(C)C)C(=O)N[C@@H](CCSC)C(=O)N[C@H](C(=O)N[C@@H](CCC(N)=O)C(N)=O)[C@@H](C)O [P454 R12A]
% helix in solution: 23 ± 2%
% helix in TFE 20%: 61 ± 2%
% helix in DOPC: 49 ± 4%
% helix in DOPC/DOPG 8 :2: 52 ± 2%
% helix in POPC: 50 ± 3%

CC[C@H](C)[C@H](NC(=O)[C@H](C)NC(=O)[C@H](Cc1c[nH]cn1)NC(=O)[C@@H](NC(=O)[C@H](CC(C)C)NC(=O)[C@H](CCC(=O)O)NC(=O)[C@H](CCC(N)=O)NC(=O)[C@H](C)NC(=O)[C@H](C)NC(=O)[C@H](C)NC(=O)[C@@H](NC(=O)[C@H](C)NC(=O)[C@H](CCC(N)=O)NC(=O)[C@H](C)NC(=O)CNC(=O)[C@H](CCC(N)=O)NC(=O)[C@H](CC(C)C)NC(=O)[C@H](C)NC(=O)[C@H](CCC(=O)O)NC(=O)[C@H](CCC(N)=O)NC(=O)CNC(=O)[C@H](Cc1c[nH]c2ccccc12)NC(=O)[C@H](Cc1c[nH]cn1)NC(=O)[C@H](C)NC(=O)[C@H](CO)NC(=O)[C@H](C)NC(C)=O)C(C)C)C(C)C)C(=O)N[C@@H](C)C(=O)N[C@@H](CC(C)C)C(=O)N[C@@H](CCSC)C(=O)N[C@H](C(=O)N[C@@H](CCC(N)=O)C(N)=O)[C@@H](C)O [P454 R12E]
% helix in solution: 6 ± 1%
% helix in TFE 20%: 55 ± 3%
% helix in DOPC: 13 ± 1%
% helix in DOPC/DOPG 8 :2: 17 ± 2%
% helix in POPC: 12 ± 3%

CC[C@H](C)[C@H](NC(=O)[C@H](C)NC(=O)[C@H](Cc1c[nH]cn1)NC(=O)[C@@H](NC(=O)[C@H](CC(C)C)NC(=O)[C@H](CCCCN)NC(=O)[C@H](CCC(N)=O)NC(=O)[C@H](C)NC(=O)[C@H](C)NC(=O)[C@H](C)NC(=O)[C@@H](NC(=O)[C@H](C)NC(=O)[C@H](CCC(N)=O)NC(=O)[C@H](C)NC(=O)CNC(=O)[C@H](CCC(N)=O)NC(=O)[C@H](CC(C)C)NC(=O)[C@H](C)NC(=O)[C@H](CCCCN)NC(=O)[C@H](CCC(N)=O)NC(=O)CNC(=O)[C@H](Cc1c[nH]c2ccccc12)NC(=O)[C@H](Cc1c[nH]cn1)NC(=O)[C@H](C)NC(=O)[C@H](CO)NC(=O)[C@H](C)NC(C)=O)C(C)C)C(C)C)C(=O)N[C@@H](C)C(=O)N[C@@H](CC(C)C)C(=O)N[C@@H](CCSC)C(=O)N[C@H](C(=O)N[C@@H](CCC(N)=O)C(N)=O)[C@@H](C)O [P454 R12K]
% helix in solution: 13 ± 2%
% helix in TFE 20%: 72 ± 1%
% helix in DOPC: 38 ± 2%
% helix in DOPC/DOPG 8 :2: 53 ± 3%
% helix in POPC: 38 ± 1%

CC[C@H](C)[C@H](NC(=O)[C@H](C)NC(=O)[C@H](Cc1c[nH]cn1)NC(=O)[C@@H](NC(=O)[C@H](CC(C)C)NC(=O)[C@H](CCC(N)=O)NC(=O)[C@H](CCC(N)=O)NC(=O)[C@H](C)NC(=O)[C@H](C)NC(=O)[C@H](C)NC(=O)[C@@H](NC(=O)[C@H](C)NC(=O)[C@H](CCC(N)=O)NC(=O)[C@H](C)NC(=O)CNC(=O)[C@H](CCC(N)=O)NC(=O)[C@H](CC(C)C)NC(=O)[C@H](C)NC(=O)[C@H](CCC(N)=O)NC(=O)[C@H](CCC(N)=O)NC(=O)CNC(=O)[C@H](Cc1c[nH]c2ccccc12)NC(=O)[C@H](Cc1c[nH]cn1)NC(=O)[C@H](C)NC(=O)[C@H](CO)NC(=O)[C@H](C)NC(C)=O)C(C)C)C(C)C)C(=O)N[C@@H](C)C(=O)N[C@@H](CC(C)C)C(=O)N[C@@H](CCSC)C(=O)N[C@H](C(=O)N[C@@H](CCC(N)=O)C(N)=O)[C@@H](C)O [P454 R12Q]
% helix in solution: 8 ± 4%
% helix in TFE 20%: 50 ± 2%
% helix in DOPC: 26 ± 3%
% helix in DOPC/DOPG 8 :2: 33 ± 3%
% helix in POPC: 27 ± 2%

CC[C@H](C)[C@H](NC(=O)[C@H](C)NC(=O)[C@H](Cc1c[nH]cn1)NC(=O)[C@@H](NC(=O)[C@H](CC(C)C)NC(=O)[C@H](CCCNC(=N)N)NC(=O)[C@H](CCC(N)=O)NC(=O)[C@H](C)NC(=O)[C@H](C)NC(=O)[C@H](C)NC(=O)[C@@H](NC(=O)[C@H](C)NC(=O)[C@H](CCC(N)=O)NC(=O)[C@H](C)NC(=O)CNC(=O)[C@H](CCC(N)=O)NC(=O)[C@H](CC(C)C)NC(=O)[C@H](C)NC(=O)[C@H](CCCNC(=N)N)NC(=O)[C@H](CCC(N)=O)NC(=O)CNC(=O)[C@H](Cc1c[nH]c2ccccc12)NC(=O)[C@H](Cc1c[nH]cn1)NC(=O)[C@H](C)NC(=O)[C@H](CO)NC(=O)[C@H](C)NC(C)=O)C(C)C)C(C)C)C(=O)N[C@@H](C)C(=O)N[C@@H](CC(C)C)C(=O)N[C@@H](CCSC)C(=O)N[C@H](C(=O)N[C@@H](CCC(N)=O)C(N)=O)[C@@H](C)O [Peptide P454]
% helix in solution: 17 ± 2%
% helix in TFE 20%: 60 ± 2%
% helix in DOPC: 45 ± 5%
% helix in DOPC/DOPG 8 :2: 62 ± 1%
% helix in POPC: 42 ± 3%

From article PMC5705984, “Membrane-Active Properties of an Amphitropic Peptide from the CyaA Toxin Translocation Region” (Toxins, 2017)
